Construct, isoform or probe ends are uncertain for at least one entry. Where cells or extracts were used, other partners may take part. At least one verdict rests on a figure or table, not on a statement of the authors. Protein sequences can lack the tags named with them.
Biological target: T1, ICP4 (infected cell protein 4) (Herpes simplex virus 1 strain KOS) (UniProt P08392)
T1 sequence (looked up, limits assumed): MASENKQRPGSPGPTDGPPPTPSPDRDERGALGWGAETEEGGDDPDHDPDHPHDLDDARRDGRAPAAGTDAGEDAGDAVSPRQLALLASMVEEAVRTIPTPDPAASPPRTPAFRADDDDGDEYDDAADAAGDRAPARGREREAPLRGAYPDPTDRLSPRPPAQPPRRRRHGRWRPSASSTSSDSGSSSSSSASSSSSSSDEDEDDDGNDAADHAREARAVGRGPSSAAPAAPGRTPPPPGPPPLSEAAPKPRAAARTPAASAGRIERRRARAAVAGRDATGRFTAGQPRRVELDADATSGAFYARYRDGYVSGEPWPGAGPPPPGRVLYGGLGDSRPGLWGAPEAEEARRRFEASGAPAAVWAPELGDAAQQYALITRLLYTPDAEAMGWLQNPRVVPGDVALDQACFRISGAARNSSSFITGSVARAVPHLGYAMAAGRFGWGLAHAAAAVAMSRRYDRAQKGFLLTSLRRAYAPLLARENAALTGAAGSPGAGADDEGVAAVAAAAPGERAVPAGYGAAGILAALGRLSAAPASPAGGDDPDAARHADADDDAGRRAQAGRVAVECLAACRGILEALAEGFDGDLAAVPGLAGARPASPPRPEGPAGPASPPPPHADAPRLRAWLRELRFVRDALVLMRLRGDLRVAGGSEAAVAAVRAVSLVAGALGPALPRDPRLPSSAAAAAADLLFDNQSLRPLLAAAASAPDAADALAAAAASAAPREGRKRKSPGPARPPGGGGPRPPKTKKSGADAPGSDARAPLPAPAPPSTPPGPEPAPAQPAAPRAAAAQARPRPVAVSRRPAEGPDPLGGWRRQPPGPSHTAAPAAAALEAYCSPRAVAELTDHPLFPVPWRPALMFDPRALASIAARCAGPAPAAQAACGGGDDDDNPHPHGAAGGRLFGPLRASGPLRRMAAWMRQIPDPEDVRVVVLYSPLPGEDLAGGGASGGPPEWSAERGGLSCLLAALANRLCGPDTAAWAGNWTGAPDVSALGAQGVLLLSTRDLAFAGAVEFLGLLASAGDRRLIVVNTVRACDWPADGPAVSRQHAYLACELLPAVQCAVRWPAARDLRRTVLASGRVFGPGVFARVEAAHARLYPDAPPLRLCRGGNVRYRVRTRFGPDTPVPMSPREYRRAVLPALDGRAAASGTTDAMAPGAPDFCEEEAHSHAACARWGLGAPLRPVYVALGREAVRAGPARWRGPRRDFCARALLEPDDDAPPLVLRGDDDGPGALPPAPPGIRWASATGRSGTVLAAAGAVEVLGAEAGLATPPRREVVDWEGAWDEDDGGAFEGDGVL
Assay: competition EMSA
Conditions: protein in an extract; label: unlabeled

“CACTATCGTCCATACCGACCACACCGACGAA (double strand) [ICP4 consensus competitor]”: binds.
